Anti-infective test results gathered from many reports (values: NIAID ChemDB through PubChem).

Common to all: host cell toxicity; cell line: Huh7.5.1; method: MTT; endpoint: CC50

Neighbouring rows are from separate reports.

compound	result
CC1=C(/C=C/C(C)=C/C=C/C(C)=C/C(=O)O)C(C)(C)CCC1	>30 µM
NC(=O)c1ncn([C@@H]2O[C@H](CO)[C@@H](O)[C@H]2O)n1	>10 µM
C=C(c1ccc(C(=O)O)cc1)c1cc2c(cc1C)C(C)(C)CCC2(C)C	>30 µM
COC(=O)CNC(=O)c1nn(Cc2cccc(NC(=O)c3ccc(F)cc3)c2)c2ccccc12	>10 µM
C[C@H]1[C@H](C)CC[C@]2(C(=O)O)CC[C@]3(C)C(=CC[C@@H]4[C@@]5(C)CC[C@H](O)C(C)(C)[C@@H]5CC[C@]43C)[C@H]12	71.1 µg/mL
CC1(C)CCC(C)(C)c2cc(C3(c4ccc(C(=O)O)cc4)OCCO3)ccc21	>30 µM
CC(=O)c1ccc(C(=O)Nc2cccc(Cn3nc(C(N)=O)c4ccccc43)c2)cc1	>10 µM
CCCCCOc1cc2c(cc1-c1cc(/C=C/C(=O)O)ccc1O)C(C)(C)CCC2(C)C	>30 µM
COC(=O)N[C@H](C(=O)N1CCC[C@H]1c1ncc(-c2ccc(-c3ccc(-c4cnc([C@@H]5CCCN5C(=O)[C@@H](NC(=O)OC)C(C)C)[nH]4)cc3)cc2)[nH]1)C(C)C	>1 µM
CC1(C)CC[C@]2(C(=O)O)CC[C@]3(C)C(=CC[C@@H]4[C@@]5(C)CC[C@H](O)C(C)(C)[C@@H]5CC[C@]43C)[C@@H]2C1	>200 µg/mL
NC(=O)c1nn(Cc2cccc(NC(=O)c3ccco3)c2)c2ccccc12	>10 µM
CC1(C)CCC(C)(C)C2C=C(NC(=O)c3ccc(C(=O)O)cc3)C=CC21	>30 µM
Cc1ccc(C(=O)Nc2cccc(Cn3nc(C(N)=O)c4ccccc43)c2)cc1	>10 µM
CO[C@@H]1[C@H](O)[C@@H](COP(=O)(O)OP(=O)(O)OP(=O)(O)O)O[C@H]1n1ccc(N)nc1=O	>100 µg/mL
NC(=O)c1nn(Cc2cccc(NC(=O)c3ccc(C(F)(F)F)cc3)c2)c2ccccc12	6.35 µM
COc1c(C)c2c(c(O)c1CC(=O)O)C(=O)OC2	>10 µM

CCn is the concentration with n% toxicity to the cells.